# Values from PubChem BioAssay AID504761 (Drosophila RNAi Screening Center, 2011)
# Screen: 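Insect host genes that dengue virus relies on to spread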 (primary screen)
# Cell system: D.Mel-2 cells from Drosophila
# Knock-down reagent: long dsRNA against Drosophila genes
# Treatment: infection with dengue virus type 2; dose and infection time not stated
# Detection: 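Cells stained for dengue envelope protein and imaged; percent of infected cells per well on duplicate plates, ranked by infection, with stained nuclei counted for cell number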
# Direction: infection score: higher = more virus-infected cells
# Call rule: 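Low infection ranks in the two replicates (chance level up to 0.065) followed by a retest with a 1.5-fold or larger significant decrease, p below 0.05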
# Calls: active = confirmed: knock-down lowers infection; inactive = not picked or not confirmed
# The deposit covers about 22,000 reagents; this is a random part of those that have a named target and a result. In the full data, 116 (0.52%) were called active. 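Calls depend on retest data that are not deposited; infection was ranked per plate without normalising between plates; the unit of the infection score is not given.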 A number with no mark means an inactive call. The numbers tell different reagents against one gene apart. Further read-outs or replicates are left out here. The record does not give: the amount of reagent, the time to read-out.
gene,reagent,"infection score, replicate 1","infection score, replicate 2"
TbCMF46,1,7.22,2.92
MED10,1,1.81,2.47
CG7560,1,0.86,4
CG30432,1,2.78,2.53
CG13293,1,2.08,1.11
CG11883,1,18.6,17
CG42542,1,5.24,6.98
CG42542,2,2.08,14.4
CG42542,3,2.07,4.66
CG42542,4,5.86,4.39
CG14269,1,4.24,11.3
CG12129,1,24.8,20.6
Amy-p,1,13.2,2.52
Cpr100A,1,2.57,3.27
Cpr100A,2,10.6,19.6
zda,1,6.07,6.91
zda,2,2.09,7.39
CG40198,1,6.45,4.71
Octbeta3R,1,2,11.6
Octbeta3R,2,5.59,5.19
Octbeta3R,3,2.68,14.2
Octbeta3R,4,4.62,15.7
Octbeta3R,5,4.14,3.96
Octbeta3R,6,3.31,10.6
Octbeta3R,7,7.14,8.99
Octbeta3R,8,2.97,3.23
AstA,1,3.99,
Gr61a,1,4.3,3.12
CG31910,1,26,11.9
CG6163,1,3.49,2.18
CG6163,2,3.06,6.96
CG11808,1,11.8,6.34
CG11808,2,9.46,13
NAT1,1,3.37,6.45
NAT1,2,3.23,4.77
Nup153,1,43.5,42.8
Tbh,1,4.95,13
Tbh,2,5.33,3.7
CG10565,1,2.77,17.1
TfIIS,1,32.7,9.93
TfIIS,2,0.53,1.18
Ama,1,13.1,17
CG42720 (retired record),1,2.24,10.9
CG42720 (retired record),2,7.33,8.1
whe,1,2.81,4.64
whe,2,4.54,4.8
so,1,1.13,1.37
br,1,1.21,0.31
br,2,4.06,4.05
br,3,1.1,5.42
Gr64a,1,24.9,8.35
clumsy,1,,2.05
RhoGAP15B,1,5.77,5.23
RhoGAP15B,2,0.87,3.17
MRP,1,3.85,2.38
VhaAC45RP,1,2.08,1.68
VhaAC45RP,2,6.42,12.4
GlcAT-S,1,6.16,3.72
GlcAT-S,2,1.82,5.43
